Assay results reported in publication PMC13347698 (Analytical Chemistry, 2026).

Columns and labels:
[1] = molecular target: dimeric C145A 3CL^pro single mutant (Severe acute respiratory syndrome coronavirus 2, UniProt P0DTD1, C3408A); assay type: binding, SARS-CoV-2
[2] = molecular target: monomeric E290A/R298A 3CL^pro double mutant (Severe acute respiratory syndrome coronavirus 2, UniProt P0DTD1, E3553A/R3561A); assay type: binding, SARS-CoV-2

O=C(Nc1ccc(N(Cc2ccsc2)C(=O)Cn2nnc3ccccc32)cc1)C1CC1 [ML300]
binding heat detected [1]: No measurable heat was detected | binding detectable [2]: not
